Pooled drug test results. Numbers come from NIAID ChemDB, via PubChem.

Shared fields: growth or infection tests; species: HIV-1; read by: p24; measure: EC50

ECn is the concentration giving n% inhibition of infection, replication or growth. Conditions beyond the fields shown may differ between rows.

Cc1c(O)cccc1C(=O)N[C@@H](CSc1ccccc1)[C@H](O)CN1C[C@H]2CCCC[C@H]2C[C@H]1C(=O)NC(C)(C)C ; strain or isolate: IIIB ; cell line: PBMC ; result: 0.006 µM
CC(C)(C)NC(=O)[C@@H]1C[C@@H]2CCCC[C@@H]2CN1C[C@@H](O)[C@H](Cc1ccccc1)NC(=O)[C@H](CC(N)=O)NC(=O)c1ccc2ccccc2n1 ; mutations: PR-M46I V82T ; strain or isolate: NL4-3 ; cell line: MT-4 ; result: <0.025 µM
COC(=O)[C@H](C)NP(=O)(OC[C@@H]1C=C[C@H](n2cc(C)c(=O)[nH]c2=O)O1)Oc1ccc(Br)cc1 ; mutations: RT-M41L K103N T215Y ; strain or isolate: S159-2 Clinical isolate ZDV-resistant ; cell line: PBMC ; result: 0.00078 µM
Cc1cn([C@H]2C[C@H](N=[N+]=[N-])[C@@H](CO)O2)c(=O)[nH]c1=O ; mutations: RT-M42L M184V T215Y ; strain or isolate: C140 NRTI resistant ; cell line: PBMC ; result: 0.1 µM
O=C1N(Cc2ccc(CO)cc2)[C@H](Cc2ccccc2)[C@H](O)[C@@H](O)[C@@H](Cc2ccccc2)N1Cc1ccc(CO)cc1 ; strain or isolate: R clinical isolate ; cell line: PBMC ; result: 0.04 µM
O=C(CSc1nnnn1-c1cccc(Cl)c1Cl)Nc1ccccc1Cl ; cell line: MT-4 ; result: <10 µM
COC(=O)[C@H](C)NP(=O)(OC[C@@H]1C=C[C@H](n2cc(C)c(=O)[nH]c2=O)O1)Oc1ccc(Br)cc1 ; mutations: RT-M41L D67N K70R T215F K219Q ; strain or isolate: G780-1 NRTI resistant ; cell line: PBMC ; result: 0.035 µM
Nc1nc(NC2CC2)c2ncn([C@H]3C=C[C@@H](CO)C3)c2n1 ; mutations: RT-K103N ; cell line: MT-2 ; result: 0.032 µM
C[C@H](Cn1cnc2c(N)ncnc21)OCP(=O)(O)O ; mutations: RT-M184V ; strain or isolate: M184V (3TC-resistant RT M184V) ; cell line: MT-2 ; result: 1.5 µM
Nc1ccn([C@H]2CC[C@@H](CO)O2)c(=O)n1 ; strain or isolate: IIIB)(ddC ; cell line: MT-4 ; result: 3.2 µM
Cc1cccc(C)c1-n1nnnc1SCC(=O)Nc1ccccc1[N+](=O)[O-] ; cell line: MT-4 ; result: <10 µM
Cc1cn([C@H]2C=C[C@@H](CO)O2)c(=O)[nH]c1=O ; mutations: RT-delta67 K103N ; cell line: MT-2 ; result: 0.378 µM
Cc1cc(C)c(-n2nnnc2SCC(=O)Nc2ccccc2[N+](=O)[O-])c(C)c1 ; cell line: MT-4 ; result: <10 µM
CC(C)CN(C[C@@H](O)[C@H](Cc1ccccc1)NC(=O)[C@H](CC(N)=O)NC(=O)c1ccc2ccccc2n1)C(=O)NC(C)(C)C ; mutations: PR-I84V ; strain or isolate: NL4-3 ; cell line: MT-4 ; result: <0.4 µM
Cc1cc(C)c(-n2nnnc2SCC(=O)Nc2cccc(Cl)c2Cl)c(C)c1 ; cell line: MT-4 ; result: <10 µM
CC(C)CN(C[C@@H](O)[C@H](Cc1ccccc1)NC(=O)O[C@H]1CCOC1)S(=O)(=O)c1ccc(N)cc1 ; mutations: PR-N88D ; strain or isolate: NL4-3 ; cell line: MT-4 ; result: <0.02 µM
O=C(O)P(=O)(O)O ; strain or isolate: 8791 CLADE A CLADE A ; cell line: PBMC ; result: 21.4 µM

For reference, 2 entries again:

Nc1ccn([C@H]2CC[C@@H](CO)O2)c(=O)n1 ; strain or isolate: IIIB)(ddC ; cell line: MT-4 ; result: 3.2 µM
COC(=O)[C@H](C)NP(=O)(OC[C@@H]1C=C[C@H](n2cc(C)c(=O)[nH]c2=O)O1)Oc1ccc(Br)cc1 ; mutations: RT-M41L D67N K70R T215F K219Q ; strain or isolate: G780-1 NRTI resistant ; cell line: PBMC ; result: 0.035 µM